Here are results for 1 molecule from ChEMBL document CHEMBL1135438, “Synthesis and pharmacological characterization of novel analogues of the nicotinic acetylcholine receptor agonist (+/-)-UB-165” (J Med Chem, 2002).

Chains of the proteins cited; added tags and fusions are not shown.
UniProt Q05941, whole entry, looked up: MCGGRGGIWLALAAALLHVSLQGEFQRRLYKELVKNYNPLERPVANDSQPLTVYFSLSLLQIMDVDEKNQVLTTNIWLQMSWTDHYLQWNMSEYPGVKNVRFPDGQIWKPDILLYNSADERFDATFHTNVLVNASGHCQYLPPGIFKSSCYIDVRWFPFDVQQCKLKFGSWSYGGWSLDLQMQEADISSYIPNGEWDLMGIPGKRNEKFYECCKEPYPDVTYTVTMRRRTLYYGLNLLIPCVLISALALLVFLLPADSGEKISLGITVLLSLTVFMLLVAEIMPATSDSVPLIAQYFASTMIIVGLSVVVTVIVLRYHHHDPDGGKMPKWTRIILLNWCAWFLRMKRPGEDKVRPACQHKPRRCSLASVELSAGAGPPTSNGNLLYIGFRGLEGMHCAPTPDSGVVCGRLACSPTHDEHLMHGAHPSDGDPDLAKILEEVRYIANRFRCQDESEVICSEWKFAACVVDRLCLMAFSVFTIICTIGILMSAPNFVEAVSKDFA

Experiment [1] addresses Neuronal acetylcholine receptor subunit alpha-7 (Rattus norvegicus) (UniProt Q05941). Kind of experiment: Compound was tested for its potency at Nicotinic acetylcholine receptor alpha-7 relative to that of Nicotinic acetylcholine receptor alpha4-beta2.
A short description of experiment [2]: Compound was tested for its potency at Nicotinic acetylcholine receptor alpha3-beta4 relative to that of Nicotinic acetylcholine receptor alpha4-beta2.
Experiment [3] is described as follows: Ratio of Ki (binding affinity) relative to activation potency.

The structures appear in SMILES notation.

For the molecule `CC(=O)C1=CCCC2CCC1N2` (stereo not drawn), the Affinity ratio stood at 1470 in experiment [1] and 20.3 in experiment [2]. Besides, the Ratio in experiment [3] is 90.
